What is called Kd is the equilibrium constant for the complex coming apart. One may read the koff as the first-order rate constant of dissociation. What is called kon is a measure of how fast the partners come together.

These results are taken from paper PMC6974467, “egc Superantigens Impair Monocytes/Macrophages Inducing Cell Death and Inefficient Activation” (2019).

In the assay the target is Recombinant Human Glycoprotein 130 Fc Chimera (human) (UniProt P40189).

As for staphylococcal enterotoxin M (SEM), the Kd was determined as 5 µM, the koff was 0.0099 s⁻¹ and the kon worked out at 1990 M⁻¹ s⁻¹.
